Pooled drug test results. Numbers come from NIAID ChemDB, via PubChem.

Common to all: tests in culture; agent: Hepatitis C virus; cells: Huh7; method: replicon; measure: EC50

ECn is the concentration giving n% inhibition of infection, replication or growth.

O=C(NS(=O)(=O)C1CC1)c1ccc2c(C3CCCCC3)c3n(c2c1)CC=Cc1ncccc1-3 ; value: 1–10 µM
COc1cccc(CC(=O)N/N=C/c2cccc(OC)c2OS(=O)(=O)c2ccc(C(F)(F)F)cc2)c1 ; value: <5 µM
CN(C)S(=O)(=O)NC(=O)c1ccc2c(C3CCCCC3)c3n(c2c1)CC(C(=O)N1CCOCC1)Cc1ccccc1-3 ; value: 0.01–1 µM
CNC(=O)c1c(-c2ccc(F)cc2)oc2cc(N3CCCC(O)C3)c(OC(C)C)cc12 ; value: <10 µM
O=C(Cc1ccccc1)N/N=C/c1ccccc1OS(=O)(=O)c1ccc2ccccc2c1 ; value: <5 µM
COC(=O)/C=C/c1ccc2nc(C3(NC(=O)c4ccc5c(C6CCCCC6)c6n(c5c4)CC(=O)Nc4ccccc4-6)CCCC3)[nH]c2c1 ; value: 0.01–1 µM
COc1cccc(CC(=O)N/N=C/c2ccccc2CS(=O)(=O)c2ccc(C)cc2)c1 ; value: <5 µM
CC(C)S(=O)(=O)NC(=O)c1ccc2c(C3CCCCC3)c3n(c2c1)CC(C(=O)N1CCOCC1)Cc1ccccc1-3 ; value: 0.01–1 µM
C[C@@H](NC(=O)OCc1ccccc1)C(=O)Nc1ccc(C2SC(=Nc3cccc(F)c3)N(CCOc3ccccc3)C2=O)cc1 ; value: 1–5 µM
CNC(=O)c1c(-c2ccc(F)cc2)oc2cc(C(C)(C)O)c(OC)cc12 ; value: <1 µM
COc1ccc(CCN2C(=O)C(c3ccc(NC(=O)[C@@H](C)NC(=O)OCc4ccccc4)cc3)SC2=Nc2cccc(F)c2)cc1OC ; value: 1–5 µM
COc1cccc(CC(=O)N/N=C/c2ccccc2OS(=O)(=O)c2ccc(C(F)(F)F)cc2)c1OC ; value: <5 µM
CNC(=O)c1c(-c2ccc(CNC(C)=O)cc2)oc2ccc(OC(C)C)cc12 ; value: <30 µM
CN=C1SC(c2ccc(NC(=O)[C@@H](C)NC(=O)OCc3ccccc3)cc2)C(=O)N1Cc1ccccn1 ; value: 0.1–1 µM
CNC(=O)c1c(-c2ccc(F)cc2)oc2cc(N(C)S(C)(=O)=O)c(OCc3cccc(OC)c3)cc12 ; value: <1 µM
CC(C)NS(=O)(=O)NC(=O)c1ccc2c(C3CCCCC3)c3n(c2c1)CC(C(=O)N1CCOCC1)=Cc1ccccc1-3 ; value: 0.01–1 µM
CCc1cc2c(C(=O)NC)c(-c3ccc(F)cc3)oc2cc1N(CCF)S(C)(=O)=O ; value: <1 µM
CN(C)C(=O)c1ccc2c(C3CCCCC3)c3n(c2c1)CC(C(=O)N1CCOCC1)=Cc1ccccc1-3 ; value: 1–10 µM
CNC(=O)c1c(N(C)S(C)(=O)=O)cc2oc(-c3ccc(F)cc3)c(C(=O)NC)c2c1OC ; value: <10 µM
COc1cccc(CCC(=O)N/N=C/c2ccccc2OS(=O)(=O)c2ccc(C(F)(F)F)cc2)c1 ; value: >50 µM
CNC(=O)c1c(-c2ccc(F)cc2)oc2ccc(Cl)cc12 ; value: <10 µM
C[C@@H](NC(=O)OCc1ccccc1)C(=O)Nc1ccc(C2SC(=Nc3ccc(N4CCOCC4)cc3)N(Cc3ccccn3)C2=O)cc1 ; value: <0.1 µM
CNC(=O)c1c(-c2ccc(F)cc2)oc2cc(C3CCOC3)c(OC)cc12 ; value: <1 µM
Cn1cnc(S(=O)(=O)NC(=O)c2ccc3c(C4CCCCC4)c4n(c3c2)CCCc2ncccc2-4)c1 ; value: 1–10 µM

3 of the rows above, restated:

SMILES | value
CN(C)C(=O)c1ccc2c(C3CCCCC3)c3n(c2c1)CC(C(=O)N1CCOCC1)=Cc1ccccc1-3 | 1–10 µM
O=C(NS(=O)(=O)C1CC1)c1ccc2c(C3CCCCC3)c3n(c2c1)CC=Cc1ncccc1-3 | 1–10 µM
COC(=O)/C=C/c1ccc2nc(C3(NC(=O)c4ccc5c(C6CCCCC6)c6n(c5c4)CC(=O)Nc4ccccc4-6)CCCC3)[nH]c2c1 | 0.01–1 µM

Conditions beyond the fields shown may differ between rows. a–b is a range or a potency band.